Anti-infective test results gathered from many reports (values: NIAID ChemDB through PubChem).

Shared fields: enzyme or target tests

Rows are shuffled and stem from different studies.

smiles | target | organism | dose | mutations | read-out | method | strain or isolate | value
CC(=O)Nc1ccc2c(c1)CN(c1nn3c(C4CC4)nnc3c3ccccc13)CC2 | Reverse transcriptase | HIV-1 |  |  | IC90 | RT activity / fluorescence | KER2008 | 0.3 µM
Cc1ccc(-n2nnnc2SCC(=O)Nc2ccc(-c3csc(N)n3)cc2Cl)c(Cl)c1 | Reverse transcriptase | HIV-1 |  |  | IC50 | PicoGreen / fluorescence | WT | <1 µM
Nc1nc2c(ncn2[C@H]2CC[C@@H](COP(=O)(O)OP(=O)(O)OP(=O)(O)OP(=O)(O)OC[C@H]3O[C@@H](n4cnc5c(N)ncnc54)[C@H](O)[C@@H]3O)O2)c(=O)[nH]1 | Reverse transcriptase | HIV |  | RT-D67N K70R T215Y K219Q | fold resistance | nucleotide incorporation / radiometric |  | 0.108
CN1CCn2c(nc(C(=O)NCc3ccc(F)cc3)c(O)c2=O)C1CN(C)S(C)(=O)=O | Integrase | HIV-1 |  |  | IC50 | ELISA |  | <10 µM
CC(C)(C#Cc1ccc(NC(=O)CSc2nnnn2-c2ccc(C3CC3)cc2Cl)c(Cl)c1)C(=O)NC(C)(C)C(=O)O | Reverse transcriptase | HIV-1 |  | RT-K103 Y181C | IC50 | PicoGreen / fluorescence |  | <1 µM
Nc1ncnc2c1ncn2[C@H]1CC[C@@H](COP(=O)(O)OP(=O)(O)OP(=O)(O)OP(=O)(O)OC[C@@H]2CC[C@H](n3cnc4c(N)ncnc43)O2)O1 | Reverse transcriptase | HIV |  | RT-M41L T215Y | fold resistance | nucleotide incorporation / radiometric |  | 0.45
O=C(NCc1ccc(F)cc1)c1nc2n(c(=O)c1O)CCNC2COCc1ccccc1 | Integrase | HIV-1 |  |  | IC50 | ELISA |  | <10 µM
Nc1nc2c(ncn2[C@@H]2O[C@H](COP(=O)(O)OC3C[C@H](n4cnc5c(N)ncnc54)O[C@@H]3CO)[C@@H](O)[C@H]2O)c(=O)[nH]1 | RNase H | HIV-1 | 50 µM |  | inhibition | RNase H |  | 17%
CC(C)(C)c1ccc(-n2nnnc2SCC(=O)Nc2ccc(-c3ccc(OCC(=O)O)c(Cl)c3)cc2Cl)c(Cl)c1 | Reverse transcriptase | HIV-1 |  | RT-K103 Y181C | IC50 | PicoGreen / fluorescence |  | <1 µM
Nc1nc(OCCc2ccc([N+](=O)[O-])cc2)c2ncn([C@@H]3O[C@H](COP(O)(=S)O[C@H]4[C@@H](F)[C@H](n5cnc6c(N)ncnc65)O[C@@H]4CO)[C@@H](O)[C@H]3O)c2n1 | RNase H | HIV-1 | 50 µM |  | inhibition | RNase H |  | 69%
CC(C)(C)c1ccc(-n2nnnc2SCC(=O)Nc2ccc(-c3ccc(/C=C/C(=O)O)cc3)cc2Cl)c(Cl)c1 | Reverse transcriptase | HIV-1 |  | RT-K103 Y181C | IC50 | PicoGreen / fluorescence |  | <1 µM
COc1ccc2c(c1)CN(c1nn3c(-c4cccs4)nnc3c3ccccc13)CC2 | Reverse transcriptase | HIV-1 |  |  | IC90 | RT activity / fluorescence | 98US_MSC5016 | >100 µM
CCCC(C)Nc1nc2c(ncn2[C@@H]2O[C@H](COP(O)(=S)O[C@H]3C[C@H](n4cnc5c(N)ncnc54)O[C@@H]3CO)[C@@H](O)[C@H]2O)c(=O)[nH]1 | RNase H | HIV-1 | 50 µM |  | inhibition | RNase H |  | 5%
CC(C)(C#Cc1ccc(NC(=O)CSc2nnnn2-c2cc(C(F)(F)F)ccc2Cl)c(Cl)c1)NC(=O)C1CC1 | Reverse transcriptase | HIV-1 |  |  | IC50 | PicoGreen / fluorescence | WT | <1 µM
O=C1c2c(O)c(=O)ccn2CCN1CCCc1ccccc1 | Integrase | HIV-1 |  |  | IC50 | ELISA |  | 0.01–0.1 µM
Nc1ncnc2c1ncn2[C@@H]1O[C@H](COP(=O)(O)O[C@H]2[C@@H](O)[C@H](n3cnc4c(N)ncnc43)O[C@@H]2CO)[C@@H](O)[C@H]1O | RNase H | HIV-1 | 50 µM |  | inhibition | RNase H |  | 1%
CC(C)(C#Cc1ccc(NC(=O)CSc2nnnn2-c2ccc(C3CC3)cc2Cl)c(Cl)c1)NC(=O)c1ccncc1 | Reverse transcriptase | HIV-1 |  |  | IC50 | PicoGreen / fluorescence | WT | <1 µM
c1coc(-c2nnc3c4ccccc4c(N4CCc5ccccc5C4)nn23)c1 | Reverse transcriptase | HIV-1 |  |  | IC50 | RT activity / fluorescence | KER2008 | 0.59 µM
CC(C)(C#Cc1ccc(NC(=O)CSc2nnnn2-c2ccc(C(C)(C)C)cc2Cl)c(Cl)c1)OCC(N)=O | Reverse transcriptase | HIV-1 |  |  | IC50 | PicoGreen / fluorescence | WT | <1 µM
CC(C)(C)NC(=O)[C@@H]1CCCN1C(=O)[C@H](O)[C@H](Cc1ccccc1)NC(=O)[C@H](CC(N)=O)NC(=O)OCc1ccccc1 | Protease | HIV-1 |  |  | IC50 |  |  | >5 µM
COc1ccc(OC)c(C/C=C(\C)CC/C=C(\C)CC/C=C(\C)CC/C=C(\C)CC/C=C(\C)CCC=C(C)C)c1 | Reverse transcriptase | HIV-2 |  |  | IC90 | nucleotide incorporation |  | 12.8 µM
Nc1nc2c(ncn2[C@H]2CC[C@@H](COP(=O)(O)OP(=O)(O)OP(=O)(O)OP(=O)(O)OC[C@@H]3CC[C@H](n4cnc5c(=O)[nH]c(N)nc54)O3)O2)c(=O)[nH]1 | Reverse transcriptase | HIV |  | RT-M41L T215Y | fold resistance | nucleotide incorporation / radiometric |  | 0.217
CC(=O)Nc1cc2c(cc1OC(F)(F)F)CCN(c1nn3c(C)nnc3c3ccccc13)C2 | Reverse transcriptase | HIV-1 |  |  | IC90 | RT activity / fluorescence | 98US_MSC5016 | 1.15 µM
CC(C)(C)OC(=O)N[C@@H](Cc1ccccc1)C(=O)N[C@@H](CC(N)=O)C(=O)N[C@@H](Cc1ccccc1)[C@@H](O)C(=O)NCC1CCCCC1 | Protease | HIV-1 | 1000 µM |  | inhibition |  |  | 80.5%
Nc1ccn([C@H]2CC[C@@H](COP(=O)(O)OP(=O)(O)OP(=O)(O)O)O2)c(=O)n1 | Reverse transcriptase | HIV |  | RT-M41L T215Y | fold resistance | nucleotide incorporation / radiometric |  | 1.2
CC(C)(CO)Oc1ccc(NC(=O)CSc2nnnn2-c2ccc(C3CC3)cc2Cl)c(Cl)c1 | Reverse transcriptase | HIV-1 |  |  | IC50 | PicoGreen / fluorescence | WT | <1 µM
CC(C)(C)NC(=O)[C@@H]1C[C@@H](O)CCN1C(=O)[C@@H](O)[C@H](Cc1ccccc1)NC(=O)[C@H](CC(N)=O)NC(=O)OCc1ccccc1 | Protease | HIV-1 | 5 µM |  | inhibition |  |  | 88.3%
CC(C)(COc1ccc(NC(=O)CSc2nnnn2-c2ccc(C3CC3)cc2Cl)c(Cl)c1)C(=O)O | Reverse transcriptase | HIV-1 |  | RT-K103 Y181C | IC50 | PicoGreen / fluorescence |  | <1 µM
CC1(C)c2nc(C(=O)NCc3ccc(F)cc3)c(O)c(=O)n2CCN1Cc1ncco1 | Integrase | HIV-1 |  |  | IC50 | ELISA |  | <10 µM
CC(C)(C#Cc1ccc(NC(=O)CSc2nnnn2-c2ccc(C3CC3)cc2Cl)c(Cl)c1)NS(C)(=O)=O | Reverse transcriptase | HIV-1 |  |  | IC50 | PicoGreen / fluorescence | WT | <1 µM
CC1(C)c2nc(C(=O)NCc3ccc(F)cc3)c(O)c(=O)n2CCN1Cc1nn[nH]n1 | Integrase | HIV-1 |  |  | IC50 | ELISA |  | <10 µM
CCC[C@H](NC(=O)COc1cccc2ccccc12)C(=O)N[C@@H](Cc1ccccc1)[C@H](O)C(=O)N1CSC[C@H]1C(=O)NC(C)(C)C | Protease | HIV-1 | 0.05 µM |  | inhibition |  |  | 89.3%
Nc1nc2c(ncn2[C@H]2CO[C@@H](COP(=O)(O)OP(=O)(O)OP(=O)(O)O)O2)c(=O)[nH]1 | Reverse transcriptase | HIV |  | RT-Q151M K103N | Ki | radiometric |  | 0.035 µM
CC(C)(C#Cc1ccc(NC(=O)CSc2nnnn2-c2cc(C(F)(F)F)cc(C3CC3)c2Cl)c(Cl)c1)C(=O)O | Reverse transcriptase | HIV-1 |  |  | IC50 | PicoGreen / fluorescence | WT | <1 µM
Nc1nc2c(ncn2[C@H]2CC[C@@H](COP(=O)(O)OP(=O)(O)NP(=O)(O)OP(=O)(O)OC[C@H]3O[C@@H](n4cnc5c(N)ncnc54)[C@H](O)[C@@H]3O)O2)c(=O)[nH]1 | Reverse transcriptase | HIV |  | RT-D67N K70R | IC50 | nucleotide incorporation / radiometric |  | >41 µM
Cc1ccc(-n2nnnc2SCC(=O)Nc2ccc(-c3cnc[nH]3)cc2Cl)c(Cl)c1 | Reverse transcriptase | HIV-1 |  | RT-K103 Y181C | IC50 | PicoGreen / fluorescence |  | <1 µM
O=C(NCc1ccc(F)cc1)c1nc2n(c(=O)c1O)CCN(Cc1cocn1)C21CC1 | Integrase | HIV-1 |  |  | IC50 | ELISA |  | <10 µM
C[C@H](O)CC[C@@]1(O)[C@@H](C)C[C@H](O[C@H]2O[C@@H](CO)[C@H](O)[C@@H](O)[C@@H]2O)CC1(C)C | RNase H | HIV-2 |  |  | IC50 | FRET |  | >20 µM
Nc1cc2c(c(N3CCOCC3)c1)CCN(c1nn3c(C4CC4)nnc3c3ccccc13)C2 | Reverse transcriptase | HIV-1 |  |  | IC50 | RT activity / fluorescence | 98US_MSC5016 | 18.2 µM
CSCc1cc(=O)c(O)c2n1CCN(Cc1ccc(Cl)c(Cl)c1)C2=O | Integrase | HIV-1 |  |  | IC50 | ELISA |  | 0.01–0.1 µM
O=C(COc1ccc(NC(=O)CSc2nnnn2-c2ccc(C3CC3)cc2Cl)c(Cl)c1)NCCc1ccncc1 | Reverse transcriptase | HIV-1 |  |  | IC50 | PicoGreen / fluorescence | WT | <1 µM
Oc1cc(O)c2c(c1)O[C@H](c1cc(O)c(O)c(O)c1)[C@H](O)C2 | RNase H | HIV-2 |  |  | IC50 | FRET |  | >20 µM
COc1ccc(-c2ccc(NC(=O)CSc3nnnn3-c3ccc(C)cc3Cl)c(Cl)c2)cc1 | Reverse transcriptase | HIV-1 |  | RT-K103 Y181C | IC50 | PicoGreen / fluorescence |  | <1 µM
CC(=O)Nc1ccc2c(c1)CN(c1nn3c(C)nnc3c3ccccc13)CC2 | Reverse transcriptase | HIV-1 |  |  | IC90 | RT activity / fluorescence | 98US_MSC5016 | 24.1 µM
O=C(OC[C@H]1O[C@@H](OCCc2ccc(O)cc2)[C@H](O)[C@@H](O)[C@@H]1O)c1cc(O)c(O)c(O)c1 | RNase H | HIV-2 |  |  | IC50 | FRET |  | 3.5 µM
CC(C)(C#Cc1ccc(NC(=O)CSc2nnnn2-c2ccc(C(C)(C)C)cc2Cl)c(Cl)c1)OCC(=O)NCc1ccco1 | Reverse transcriptase | HIV-1 |  | RT-K103 Y181C | IC50 | PicoGreen / fluorescence |  | <1 µM
Nc1nc2c(ncn2[C@H]2C[C@H](OP(=O)(O)OC[C@H]3O[C@@H](n4cnc5c(=O)[nH]c(N)nc54)C[C@@H]3O)[C@@H](CO)O2)c(=O)[nH]1 | RNase H | HIV-1 | 50 µM |  | inhibition | RNase H |  | 9%
CC(C)(C)c1ccc(-n2nnnc2SCC(=O)Nc2ccc(NC(=O)Nc3ccccc3)cc2Cl)c(Cl)c1 | Reverse transcriptase | HIV-1 |  |  | IC50 | PicoGreen / fluorescence | WT | <1 µM
CC(C)(C)NC(=O)[C@@H]1C[C@@H](OCc2ccccc2)CN1C(=O)[C@@H](O)[C@H](Cc1ccccc1)NC(=O)[C@H](CC(N)=O)NC(=O)OCc1ccccc1 | Protease | HIV-1 | 5 µM |  | inhibition |  |  | 65.4%
CC(C)(C)c1ccc(-n2nnnc2SCC(=O)Nc2ccc(OCC(=O)NCCc3ccncc3)cc2Cl)c(Cl)c1 | Reverse transcriptase | HIV-1 |  |  | IC50 | PicoGreen / fluorescence | WT | <1 µM
CN1CCn2c(nc(C(=O)NCc3ccc(F)cc3)c(O)c2=O)C1COCc1ccccc1 | Integrase | HIV-1 |  |  | IC50 | ELISA |  | <10 µM
CCCCN(CCCC)c1nc(OCCc2ccc([N+](=O)[O-])cc2)c2ncn([C@@H]3O[C@H](COP(O)(O)=S)[C@@H](O)[C@H]3O)c2n1 | RNase H | HIV-1 | 50 µM |  | inhibition | RNase H |  | 90%
COC(=O)Cc1ccc(-c2ccc(NC(=O)CSc3nnnn3-c3ccc(C)cc3Cl)c([N+](=O)[O-])c2)cc1 | Reverse transcriptase | HIV-1 |  |  | IC50 | PicoGreen / fluorescence | WT | <1 µM
CO[C@@H]1[C@H](O)[C@@H](COP(=O)(O)O[C@H]2C[C@H](n3cnc4c(=O)[nH]c(N)nc43)O[C@@H]2CO)O[C@H]1n1cnc2c(=O)[nH]c(N)nc21 | RNase H | HIV-1 | 50 µM |  | inhibition | RNase H |  | 100%
O=[N+]([O-])c1ccc2c(c1)CN(c1nn3c(C(F)F)nnc3c3ccccc13)CC2 | Reverse transcriptase | HIV-1 |  |  | IC50 | RT activity / fluorescence | KER2008 | 6.22 µM
CC[C@@H](C)[C@H](NC(=O)[C@@H]1CCCN1C(=O)[C@@H](O)[C@H](Cc1ccccc1)NC(=O)[C@H](CC(N)=O)NC(=O)OC(C)(C)C)C(=O)NCC1CCCCC1 | Protease | HIV-1 | 5 µM |  | inhibition |  |  | 48.1%
CC(C)(O)[C@H]1CC=C(COC2O[C@@H](CO[C@H]3OC[C@H](O)[C@@H](O)[C@@H]3O)[C@H](O)[C@@H](O)[C@@H]2O)CC1 | RNase H | HIV-2 |  |  | IC50 | FRET |  | >20 µM
COc1ccc(Cl)cc1Cn1ccn2ccc(=O)c(O)c2c1=O | Integrase | HIV-1 |  |  | IC50 | ELISA |  | 0.01–0.1 µM
Nc1nc2c(ncn2[C@@H]2O[C@H](COCO[C@@H]3[C@H](O)[C@@H](CO)O[C@H]3n3cnc4c(=O)[nH]c(N)nc43)[C@@H](O)[C@H]2O)c(=O)[nH]1 | RNase H | HIV-1 | 50 µM |  | inhibition | RNase H |  | 65%
O=C(O)c1cn2ccn(Cc3cccc(Cl)c3)c(=O)c2c(O)c1=O | Integrase | HIV-1 |  |  | IC50 | ELISA |  | 0.1–1 µM
O=C(CSc1nnnn1-c1ccc(C2CC2)cc1Cl)Nc1ccc(C#CC(O)(C(F)(F)F)C(F)(F)F)cc1Cl | Reverse transcriptase | HIV-1 |  |  | IC50 | PicoGreen / fluorescence | WT | <1 µM

ICn is the concentration giving n% inhibition. Percent inhibition refers to the dose given; in toxicity tests it is the harm to the cells. Two numbers with a dash give a range or band. Fold resistance: result on the changed form divided by that on wild type. An empty or dashed field is not shown.